Compound potency records, mixed from different reports. Data source: NIAID ChemDB in PubChem.

Common to all: growth or infection tests; species: HIV-1

ECn is the concentration giving n% inhibition of infection, replication or growth.

{"smiles": "Cc1cn([C@H]2C=C[C@@H](COP(=O)(O)OCc3ccccc3)O2)c(=O)[nH]c1=O", "cell line": "MT-4", "read-out": "EC50", "result": "0.034 µM"}
{"smiles": "Nc1nc(=O)n([C@@H]2CO[C@H](CO)S2)cc1F", "cell line": "CBMC", "read-out": "EC50", "read by": "RT activity", "strain": "4170 (AZT-resistant)", "result": "3 µM"}
{"smiles": "CCN1CCCC(OC(=O)C(c2ccccc2)c2ccccc2)C1", "cell line": "MT-4", "read-out": "EC50", "strain": "LAV", "result": ">100 µg/mL"}
{"smiles": "O=C1N(Cc2ccc(CO)cc2)[C@H](COc2ccccc2)[C@H](O)[C@@H](O)[C@@H](COc2ccccc2)N1Cc1ccc(CO)cc1", "cell line": "MT-4", "read-out": "EC50", "read by": "cytopathic effect / XTT", "strain": "IIIB", "mutations": "PR-I84V L90M", "result": "0.2 µM"}
{"smiles": "Cc1cn([C@H]2C=C[C@@H](CO)O2)c(=O)[nH]c1=O", "cell line": "CEM + CEM TK-", "read-out": "EC50", "read by": "cytopathic effect", "result": "14 µM"}
{"smiles": "Nc1cccc(CN2C(=O)N(Cc3ccc4ccccc4c3)[C@H](Cc3ccccc3)[C@H](O)[C@@H](O)[C@H]2Cc2ccccc2)c1", "cell line": "MT-2", "read-out": "EC50", "read by": "hybridisation", "strain": "RF", "result": "<0.084 µM"}
{"smiles": "CC(C)=CCC/C(C)=C/Cc1cc([C@H]2Oc3c(CC=C(C)C)c(O)cc(O)c3C(=O)[C@@H]2O)ccc1O", "cell line": "MT-4", "read-out": "EC50", "read by": "MTT", "strain": "IIIB", "result": ">10 µg/mL"}
{"smiles": "CC(=O)CCCCn1c(=O)c2c(ncn2C)n(C)c1=O", "cell line": "MT-4", "read-out": "EC50", "strain": "LAV", "result": ">100 µg/mL"}
{"smiles": "CNC(C)[C@H]1O[C@H](O[C@@H]2[C@@H](O)[C@H](O[C@@H]3OC[C@@](C)(O)[C@@H](NC)[C@@H]3O)[C@@H](NC(=O)[C@@H](N)CCCN=C(N)N)C[C@H]2NC(=O)[C@@H](N)CCCN=C(N)N)[C@H](NC(=O)[C@@H](N)CCCN=C(N)N)[C@@H](O)[C@@H]1O", "cell line": "MT-4", "read-out": "EC50", "read by": "cytopathic effect / MTT", "strain": "RF", "result": "35 µM"}
{"smiles": "CC1=CC2c3c(O)cc(-c4cc5ccc(O)cc5o4)cc3OC3(c4ccc(O)cc4O)Oc4cc(O)ccc4C(C1)C23", "cell line": "MT-4", "read-out": "EC50", "read by": "MTT", "strain": "IIIB", "result": ">4 µg/mL"}
{"smiles": "Cc1ccnc2c1NC(=O)c1cccnc1N2C1CC1", "cell line": "CEM + CEM-SS", "read-out": "EC50", "read by": "cytopathic effect / XTT", "strain": "Isolate NL4-3", "result": "0.02 µM"}
{"smiles": "O=C1CN=C(c2ccc[nH]2)c2cc(Cl)ccc2N1", "cell line": "HUT-78/IIIB/LAI + HUT 78", "read-out": "EC50", "read by": "syncytia", "strain": "IIIB/LAI", "result": ">1 µM"}
{"smiles": "Nc1ccn([C@H]2CO[C@@H](CO)S2)c(=O)n1", "cell line": "MT-4", "read-out": "EC50", "read by": "RT activity", "strain": "HxB2D(RT-D67G)", "mutations": "RT-D67G", "result": "7.5 µM"}
{"smiles": "Cc1cn([C@H]2C[C@H](N=[N+]=[N-])[C@@H](CO)O2)c(=O)[nH]c1=O", "cell line": "CEM + CEM-SS", "read-out": "EC50", "read by": "cytopathic effect / XTT", "strain": "UC82-R (RT-Y181C)", "mutations": "RT-Y181C", "result": "0.01 µM"}
{"smiles": "Cc1cn([C@H]2C[C@H](N=[N+]=[N-])[C@@H](CO)O2)c(=O)[nH]c1=O", "cell line": "MT-4", "read-out": "EC50", "read by": "cytopathic effect / MTT", "strain": "AOM", "result": "3.7 µM"}
{"smiles": "O=C1N(Cc2ccccn2)[C@H](Cc2ccccc2)[C@H](O)[C@@H](O)[C@@H](Cc2ccccc2)N1Cc1ccccn1", "cell line": "MT-2", "read-out": "EC50", "read by": "hybridisation", "strain": "RF", "result": "<49 µM"}
{"smiles": "CC(C)=CCc1cc(-c2cc(=O)c3c(O)c(CC=C(C)C)c(O)cc3o2)ccc1O", "cell line": "MT-4", "read-out": "EC50", "read by": "cytopathic effect / MTT", "strain": "IIIB", "result": ">10 µg/mL"}
{"smiles": "O=C1O[C@H]2[C@@H]3OC(=O)c4cc(O)c(O)c(O)c4-c4c(cc(O)c(O)c4O)C(=O)OC[C@H]2O[C@@H](OC(=O)c2cc(O)c(O)c(O)c2)[C@@H]3OC(=O)c2cc(O)c(O)c3c2[C@@H]2C1=CC(=O)[C@](O)(O3)C2(O)O", "cell line": "MAGI", "read-out": "EC50", "strain": "NNRTI-resistant (RT G190A) ARP1014", "mutations": "RT-G190A", "result": "1.1 µg/mL"}
{"smiles": "C/C=C/CSc1cc(NC(=S)c2ccsc2C)ccc1Cl", "cell line": "CEM + CEM-SS", "read-out": "EC50", "read by": "cytopathic effect / XTT", "strain": "E BPTU-resistant (RT Y181C)", "mutations": "RT-Y181C", "result": ">2 µM"}
{"smiles": "O=C1N(Cc2cccnc2)[C@H](Cc2ccccc2)[C@H](O)[C@@H](O)[C@@H](Cc2ccccc2)N1Cc1ccc2ccccc2c1", "cell line": "MT-2", "read-out": "EC50", "read by": "hybridisation", "strain": "RF", "result": "<0.72 µM"}
{"smiles": "CCN1CCCC1CNC(=O)c1cc(S(N)(=O)=O)ccc1OC", "cell line": "MT-4", "read-out": "EC50", "strain": "LAV", "result": ">100 µg/mL"}
{"smiles": "Cc1cn([C@H]2C[C@H](N=[N+]=[N-])[C@@H](CO)O2)c(=O)[nH]c1=O", "cell line": "C8166", "read-out": "EC90", "read by": "cytopathic effect", "strain": "RF", "result": "1 µg/mL"}
{"smiles": "CC(C)=CCc1c(O)cc(O)c2c1CCc1cc(O)c(O)cc1-2", "cell line": "MT-4", "read-out": "EC50", "read by": "cytopathic effect / MTT", "strain": "IIIB", "result": ">20 µg/mL"}
{"smiles": "Fc1cccc(Cl)c1C1OCc2nc3ccccc3n21", "cell line": "CEM", "read-out": "EC50", "read by": "cytopathic effect / MTT", "strain": "Pyridinone-resistant (RT Y181C)", "mutations": "RT-Y181C", "result": "≥14.69 µM"}
{"smiles": "Cc1cn([C@H]2C=C[C@@H](COP(=O)(OCc3ccccc3)OCc3ccccc3)O2)c(=O)[nH]c1=O", "cell line": "CEM + CEM-SS", "read-out": "EC50", "result": "4.4 µM"}
{"smiles": "COc1ccc2c(c1)O[C@H]1c3ccc(O)cc3OC[C@@H]21", "cell line": "MT-4", "read-out": "EC50", "read by": "MTT", "strain": "IIIB", "result": ">100 µg/mL"}
{"smiles": "O=c1[nH]cnc2c1ncn2C1CC[C@@H](CO)O1", "cell line": "Primary T lymphocytes", "read-out": "EC50", "read by": "p24 / ELISA", "mutations": "K65R", "result": "21.2 µM"}
{"smiles": "OCCN1CCN(CCCN2c3ccccc3Sc3ccc(Cl)cc32)CC1", "cell line": "MT-4", "read-out": "EC50", "strain": "LAV", "result": ">1 µg/mL"}
{"smiles": "C=CC(C)(C)c1cc2c(cc1O)O[C@H](c1cc(O)c(O)c(CC=C(C)C)c1CC=C(C)C)CC2", "cell line": "MT-4", "read-out": "EC50", "read by": "MTT", "strain": "IIIB", "result": ">20 µg/mL"}
{"smiles": "CC(C)CCCN1C(=O)N(CCCC(C)C)[C@H](Cc2ccccc2)[C@H](O)[C@@H](O)[C@H]1Cc1ccccc1", "cell line": "MT-2", "read-out": "EC50", "read by": "hybridisation", "strain": "RF", "result": "<8.1 µM"}
{"smiles": "CCOP(=O)(OCC)OC[C@@H]1C=C[C@H](n2cc(C)c(=O)[nH]c2=O)O1", "cell line": "CEM + CEM-SS", "read-out": "EC50", "read by": "cytopathic effect", "result": "3.5 µM"}
{"smiles": "Cc1occc1C(=S)Nc1ccc(Cl)c(/C=N/OC(C)(C)C)c1", "cell line": "CEM + CEM-SS", "read-out": "EC50", "read by": "cytopathic effect / XTT", "strain": "UC10/costatolide-resistant (RT K103N)", "mutations": "RT-K103N", "result": "7.3 µM"}
{"smiles": "O=C1N(Cc2cccc(I)c2)[C@H](Cc2ccccc2)[C@H](O)[C@@H](O)[C@@H](Cc2ccccc2)N1Cc1cccc(I)c1", "cell line": "MT-2", "read-out": "EC50", "read by": "hybridisation", "strain": "RF", "result": "<3 µM"}
{"smiles": "c1ccc(C2OCc3nc4ccccc4n32)cc1", "cell line": "MT-4", "read-out": "EC50", "read by": "cytopathic effect / MTT", "strain": "IIIB", "result": ">47 µM"}
{"smiles": "Nc1nc(=O)n([C@H]2CO[C@@H](CO)S2)cc1F", "cell line": "CBMC", "read-out": "EC50", "read by": "RT activity", "strain": "4205(RT-M184V)", "mutations": "RT-M184V", "result": "15 µM"}
{"smiles": "Cc1cn([C@H]2C=C[C@@H](CO)O2)c(=O)[nH]c1=O", "cell line": "Primary T lymphocytes", "read-out": "EC90", "read by": "p24 / ELISA", "mutations": "A62V V75I F77L F116Y Q151M", "result": "70.3 µM"}
{"smiles": "O=c1cc(-c2ccccc2)oc2cc(O)cc(O)c12", "cell line": "MT-4", "read-out": "EC50", "read by": "MTT", "strain": "IIIB", "result": "15 µg/mL"}
{"smiles": "Cc1ccnc2c1NC(=O)c1cccnc1N2C1CC1", "cell line": "CBMC", "read-out": "EC50", "read by": "RT activity", "strain": "HXB2D", "result": "0.032 µM"}
{"smiles": "COc1ccc(Oc2coc3cc(OC)cc(O)c3c2=O)c(OC)c1", "cell line": "MT-4", "read-out": "EC50", "read by": "cytopathic effect / MTT", "strain": "IIIB", "result": ">100 µg/mL"}
{"smiles": "Cc1cn([C@H]2C[C@H](N=[N+]=[N-])[C@@H](CO)O2)c(=O)[nH]c1=O", "cell line": "MT-4", "read-out": "EC50", "read by": "cytopathic effect / trypan blue", "strain": "NMR50", "result": "0.004 µM"}
{"smiles": "Nc1nc(=O)n([C@@H]2CS[C@H](CO)O2)cc1F", "cell line": "Primary T lymphocytes", "read-out": "EC50", "read by": "p24 / ELISA", "mutations": "A62V V75I F77L F116Y Q151M", "result": "0.4 µM"}
{"smiles": "CC(C)=CCc1cc([C@@H]2CC(=O)c3c(O)cc(O)cc3O2)c(CC=C(C)C)c(O)c1O", "cell line": "MT-4", "read-out": "EC50", "read by": "MTT", "strain": "IIIB", "result": ">100 µg/mL"}

Neighbouring rows are from separate reports.